Results of unrelated studies side by side (data: NIAID ChemDB).

All rows: growth or infection tests; agent: Mycobacterium tuberculosis

Neighbouring rows are from separate reports. ECn: concentration that inhibits the pathogen or its effect by n%. a–b is a range or a potency band. Inhibition is in % at the dose shown (toxicity tests: loss of growth or viability). MIC bound: limit read from a one-dose screen. Blank or dashed fields: not listed here.

compound	measure	method	dose	strain	cells	changes	value
C=CCO/N=C/c1c2c(O)c3c(O)c(C)c4c(c3c1O)C(=O)[C@@](C)(O/C=C/[C@H](OC)[C@@H](C)[C@@H](OC(C)=O)[C@H](C)[C@H](O)[C@H](C)[C@@H](O)[C@@H](C)/C=C/C=C(/C)C(=O)N2)O4	MIC	-	-	H37Rv	-	-	0.2 µg/mL
O=c1[nH]c2c([N+](=O)[O-])cccc2c(O)c1N=Nc1ccccc1[N+](=O)[O-]	inhibition	resazurin	6.25 µg/mL	H37Rv	-	-	80%
CC1NC(=O)C(NC(=O)OCc2ccccc2)COC(=O)C(C(C)C)NC(=O)CCCCNC1=O	inhibition	resazurin	6.25 µg/mL	H37Rv	-	-	-3%
O=C(O)/C(=C\c1ccc(C(F)(F)F)cc1)n1nnc2ccccc21	inhibition	-	12.5 µg/mL	H37Rv	-	-	0%
Cc1ccc(/C=C2/NC(=S)NC2=O)cc1	EC50	BACTEC	-	H37Rv	-	-	>6.25 µg/mL
C=C1C(=O)O[C@@H]2C[C@@]3(C)CCCC(C)=C3C[C@H]12	MIC	-	-	H37Rv	-	-	32 µg/mL
CCn1cc(C(=O)O)c(=O)c2cc(F)c(N3CCN(CC(=O)c4ccc(OC)cc4)CC3)c(F)c21	inhibition	BACTEC	6.25 µg/mL	H37Rv	-	-	29%
CC(=O)/C(N=Nc1ccc(C(=O)N/N=C/c2ccc([N+](=O)[O-])o2)cc1)=C(/O)c1ccccc1	MIC	-	-	H37Rv	-	-	<12.5 µg/mL
CO[C@H]1/C=C/O[C@@]2(C)Oc3c(C)c(O)c4c(O)c(c(/C=N/OCCN5CCCCC5)c(O)c4c3C2=O)NC(=O)/C(C)=C\C=C\[C@H](C)[C@H](O)[C@@H](C)[C@@H](O)[C@@H](C)[C@H](OC(C)=O)[C@@H]1C	MIC	-	-	H37Rv	-	-	2 µg/mL
CC1(C)N=C(N)N=C(N)N1c1ccc(CCCCc2cccc(S(=O)(=O)F)c2)c(Cl)c1.CCS(=O)(=O)O	MIC bound	BACTEC	-	H37Rv	-	-	>12.5 µg/mL
O=c1oc2ccc3ccccc3c2c(O)c1N=Nc1ccc([N+](=O)[O-])cc1	inhibition	resazurin	6.25 µg/mL	H37Rv	-	-	94%
Cc1ccc(NC(=O)C(Cl)(Cl)Cl)cc1Cl	MIC bound	BACTEC	-	H37Rv	-	-	>12.5 µg/mL
O=c1[nH]c2c(Cl)c(Cl)ccc2c(O)c1N=Nc1ccccc1	inhibition	resazurin	6.25 µg/mL	H37Rv	-	-	85%
O=C1NC(=S)N/C1=C/c1cccc2ccccc12	inhibition	BACTEC	6.25 µg/mL	H37Rv	-	-	16%
COc1ccc(/C=C(/C#N)n2nc3ccccc3n2)cc1OC	EC50	-	-	H37Rv	-	-	>12.5 µg/mL
C=C(CO)[C@@H]1CC[C@@]2(C)[C@H](O)CC=C(C)[C@@H]2[C@H]1O	MIC	-	-	H37Rv	-	-	>128 µg/mL
CCOC(=O)c1cn(-c2ccc(N)cc2F)c2cc(N3CCNCC3)c(F)cc2c1=O	inhibition	BACTEC	6.25 µg/mL	H37Rv	-	-	13%
CC1=CCC[C@@]2(C)O[C@H]2[C@H]2OC(=O)[C@@H](C)[C@@H]2CC1	MIC	-	-	H37Rv	-	-	128 µg/mL
C[Si]1(C)[Si](C)(C)[Si](C)(C)[Si](C)(C)[Si](C)(C)[Si]1(C)C	MIC	BACTEC	-	H37Rv	-	-	64 µg/mL
Nc1ccc(-n2cc(C(=O)O)c(=O)c3cc(F)c(N4CCNCC4)cc32)c(F)c1	inhibition	BACTEC	6.25 µg/mL	H37Rv	VERO	-	100%
O=C1C2=Nc3ccccc3C(O)(C(=O)O)N2c2ccccc21	inhibition	resazurin	6.25 µg/mL	H37Rv	-	-	100%
C/C1=C\[C@H]2OC(=O)[C@@H](C)[C@@H]2CCC2(C)O[C@@H]2CC1	MIC	-	-	H37Rv	-	-	128 µg/mL
O=c1cc(-c2ccccc2)ss1	MIC	BACTEC	-	H37Rv	-	-	≥12.5 µg/mL
CCn1cc(C(=O)O)c(=O)c2cc(F)c(N3CCN(CC(C)=O)CC3)c(F)c21	inhibition	BACTEC	6.25 µg/mL	H37Rv	VERO	-	99%
C=C(NC(=O)c1csc(-c2nc3c(cc2O)-c2nc(cs2)C(=O)N[C@@H]([C@@H](C)O)C(=O)N/C(=C(\C)OC)c2nc(cs2)C(=O)N[C@@H]2c4nc(cs4)C(=O)N[C@@H](COC(=O)c4c5c6c(cccc6n4O)COC(=O)[C@@H](O[C@H]4C[C@]6(C)OCN(C)[C@@H]6[C@H](C)O4)[C@H]2OC5)c2nc-3cs2)n1)C(N)=O	MIC	broth dilution	-	H37Rv	-	-	≤10 µM
CC(C)=CCC(OC(=O)CC(C)C)C1=CC(=O)c2c(O)ccc(O)c2C1=O	MIC	-	-	EMB-R	-	-	>12.5 µg/mL
O=C1NC(=S)N/C1=C/c1ccc(C(F)(F)F)cc1	inhibition	BACTEC	6.25 µg/mL	H37Rv	-	-	92%
CO[C@H]1/C=C/O[C@@]2(C)Oc3c(C)c(O)c4c(O)c(c(/C=N/OCCCCC(Br)CBr)c(O)c4c3C2=O)NC(=O)/C(C)=C\C=C\[C@H](C)[C@H](O)[C@@H](C)[C@@H](O)[C@@H](C)[C@H](OC(C)=O)[C@@H]1C	MIC	-	-	H37Rv	-	-	0.5 µg/mL
CCn1cc(C(=O)O)c(=O)c2cc(F)c(N3CCN(CC(=O)c4ccccc4)CC3)c(F)c21	MIC	BACTEC	-	H37Rv	VERO	-	3.13 µg/mL
CO[C@H]1/C=C/O[C@@]2(C)Oc3c(C)c(O)c4c(O)c(c5c(c4c3C2=O)NC2(CCN(CC(C)C)CC2)N=5)=NC(=O)/C(C)=C\C=C\[C@H](C)[C@H](O)[C@@H](C)[C@@H](O)[C@@H](C)[C@H](OC(C)=O)[C@@H]1C	MIC	-	-	14 (rifampicin-susceptible)	-	-	≤0.062 µg/mL
C=C1C(=O)O[C@@H]2[C@H]3C(C)=CCC[C@]3(C)CC[C@@H]12	MIC	-	-	H37Rv	-	-	64 µg/mL
NNC(=O)c1ccncc1	MIC	broth dilution	-	Clinical isolate 10525	-	Rifampicin- and isoniazid-resistant	≤10 µM
CO[C@H]1/C=C/O[C@@]2(C)Oc3c(C)c(O)c4c(O)c(c(/C=N/N5CCN(C)CC5)c(O)c4c3C2=O)NC(=O)/C(C)=C\C=C\[C@H](C)[C@H](O)[C@@H](C)[C@@H](O)[C@@H](C)[C@H](OC(C)=O)[C@@H]1C	MIC	-	-	H37RV (DL8280-R)	-	-	3 µg/mL
O=C1NC(=S)N/C1=C/c1ccc(Cl)c(Cl)c1	inhibition	BACTEC	6.25 µg/mL	H37Rv	-	-	66%
COc1cc(C2c3c(cc(OC)c(O)c3OC)C=C(C(=O)O)C2CO)cc(OC)c1O	MIC	resazurin	-	H37Rv	-	-	>6.25 µg/mL
NNC(=O)c1ccncc1	MIC	-	-	H37RV (DL8280-R)	-	-	0.05 µg/mL
N#C/C(=C\c1ccco1)n1nnc2ccccc21	EC50	-	-	H37Rv	-	-	>12.5 µg/mL
C=C1C(=O)O[C@@H]2C[C@@]3(C)CCCC(=C)[C@@H]3C[C@H]12	MIC	-	-	H37Rv	-	-	32 µg/mL
N#C/C(=C\c1ccco1)n1nc2ccccc2n1	EC50	-	-	H37Rv	-	-	>12.5 µg/mL
COC(=O)C/C(=C\C=C1\C(=O)ON=C1C)c1c(C)[nH]oc1=O.c1ccncc1	inhibition	resazurin	6.25 µg/mL	H37Rv	-	-	34%
Cc1[nH]n(-c2ccccc2)c(=O)c1N=Nc1ccc(-c2n[nH]c(=S)n2C)cc1	inhibition	-	6.25 µg/mL	H37Rv	-	-	0%
CC1COc2c(N3CCN(C)CC3)c(F)cc3c(=O)c(C(=O)O)cn1c23	MIC	-	-	H37RV (EMB-R)	-	-	0.63–1.25 µg/mL
CO[C@H]1/C=C/O[C@@]2(C)Oc3c(C)c(O)c4c(O)c(c(/C=N/OCCOC(C)C)c(O)c4c3C2=O)NC(=O)/C(C)=C\C=C\[C@H](C)[C@H](O)[C@@H](C)[C@@H](O)[C@@H](C)[C@H](OC(C)=O)[C@@H]1C	MIC	-	-	H37Rv	-	-	0.1 µg/mL
CCOC(=N)CC(=N)OCC	inhibition	BACTEC	12.5 µg/mL	H37Rv	-	-	0%
COc1ccc(N=Nc2c(O)c3c(ccc4ccccc43)oc2=O)cc1	inhibition	resazurin	6.25 µg/mL	H37Rv	-	-	55%
CO[C@H]1/C=C/O[C@@]2(C)Oc3c(C)c(O)c4c(O)c(c(/C=N/N5CCN(C)CC5)c(O)c4c3C2=O)NC(=O)/C(C)=C\C=C\[C@H](C)[C@H](O)[C@@H](C)[C@@H](O)[C@@H](C)[C@H](OC(C)=O)[C@@H]1C	MIC	broth dilution	-	Clinical isolate 7791	-	Isoniazid-resistant	≤1 µM
O=C1NC(=S)N/C1=C/c1cccc(Cl)c1Cl	inhibition	BACTEC	6.25 µg/mL	H37Rv	-	-	10%
C=C1C(=O)OC2CC(C)C3(O)CCC(=O)C3(C)CC12	MIC	-	-	H37Rv	-	-	128 µg/mL
NC(=O)c1cn(-c2ccc(N)cc2F)c2cc(N3CCNCC3)c(F)cc2c1=O	inhibition	BACTEC	6.25 µg/mL	H37Rv	-	-	1%
CCOc1ccc(/C=C2/NC(=S)NC2=O)cc1	inhibition	BACTEC	6.25 µg/mL	H37Rv	-	-	87%
COc1ccc2c(c1)O[C@H]1c3ccc(O)cc3OC[C@@H]21	MIC	BACTEC	-	H37Rv	-	-	≥12.5 µg/mL
Cc1[nH]n(-c2ccc([N+](=O)[O-])cc2)c(=O)c1N=Nc1ccc(-c2n[nH]c(=S)n2C)cc1	MIC	-	-	H37Rv	-	-	>6.25 µg/mL
CN1C(=O)CC(NC(=O)CNC(=O)c2ccccc2)C1=O	MIC	BACTEC	-	H37Rv	-	-	≥12.8 µg/mL
O=C1NC(=S)N/C1=C/c1cccc(Br)c1	EC50	BACTEC	-	H37Rv	-	-	<6.25 µg/mL
CCCC/C(C)=N/NC(=S)SC	MIC	-	-	KM-R	-	-	6.4 µg/mL
C=C(NC(=O)c1csc(-c2nc3c(cc2O)-c2nc(cs2)C(=O)N[C@@H]([C@@H](C)O)C(=O)N/C(=C(\C)OC)c2nc(cs2)C(=O)N[C@@H]2c4nc(cs4)C(=O)N[C@@H](COC(=O)c4c5c6c(cccc6n4O)COC(=O)[C@@H](O[C@H]4C[C@](C)(O)[C@H](N(C)C)[C@H](C)O4)[C@H]2OC5)c2nc-3cs2)n1)C(N)=O	MIC	broth dilution	-	Clinical isolate 9139	-	Isoniazid-resistant	<2.5 µM
Cc1ccc(S(=O)(=O)NC(=O)O/N=C/c2ccco2)cc1	inhibition	BACTEC	12.5 µg/mL	H37Rv	-	-	-7%
O=C1NC(=S)N/C1=C/c1ccc([N+](=O)[O-])cc1	EC50	BACTEC	-	H37Rv	-	-	<6.25 µg/mL
[O-][n+]1c2ccccc2nc2ccccc21	MIC	-	-	H37Rv	-	-	6.25 µg/mL
COC(C)CCO/N=C/c1c2c(O)c3c(O)c(C)c4c(c3c1O)C(=O)[C@@](C)(O/C=C/[C@H](OC)[C@@H](C)[C@@H](OC(C)=O)[C@H](C)[C@H](O)[C@H](C)[C@@H](O)[C@@H](C)/C=C/C=C(/C)C(=O)N2)O4	MIC	-	-	H37Rv	-	-	0.1 µg/mL
C=C1C([C@@]2(C)C=CC(=O)O[C@]3(C)COC(=O)CC23)[C@H](OC=O)[C@@H](OC(=O)C(O)C(C)CC)[C@]2(C)[C@@H](c3ccoc3)C[C@@H](OC(C)=O)[C@@]12O	MIC	BACTEC	-	H37Rv	-	-	≥12.5 µg/mL
C[C@@H]1C(=O)O[C@H]2[C@H]1CCC1(C)O[C@@H]1CC[C@@]1(C)O[C@@H]21	MIC	-	-	H37Rv	-	-	128 µg/mL
NC(=O)c1ccc[n+](CC(=O)O)c1.[Br-]	MIC	BACTEC	-	H37Rv	-	-	≥12.5 µg/mL
N#C/C(=C\c1ccc[nH]1)n1nc2ccccc2n1	inhibition	-	12.5 µg/mL	H37Rv	-	-	35%
O=C1O[C@H]2C(O[C@@H](N(O)c3ccccc3)[C@@H]2O)C1O	inhibition	resazurin	6.25 µg/mL	H37Rv	-	-	-8%
O=C(O)C(=NNc1ccc(C(=O)N/N=C/c2ccc([N+](=O)[O-])o2)cc1)C(=O)O	EC50	-	-	H37Rv	-	-	>6.25 µg/mL
CC[C@]12C[N+]3([O-])CCc4c([nH]c5ccccc45)[C@@](C(=O)OC)(c4cc5c(cc4OC)N(C)C4C56CCN5CC=C[C@](CC)([C@H]56)[C@@H](OC(C)=O)[C@]4(O)C(=O)OC)C[C@@H](C3)[C@H]1O2	MIC bound	BACTEC	-	H37Rv	-	-	>12.5 µg/mL
CO[C@H]1/C=C/O[C@@]2(C)Oc3c(C)c(O)c4c(O)c(c(/C=N/O)c(O)c4c3C2=O)NC(=O)/C(C)=C\C=C\[C@H](C)[C@H](O)[C@@H](C)[C@@H](O)[C@@H](C)[C@H](OC(C)=O)[C@@H]1C	MIC	-	-	H37Rv	-	-	5 µg/mL
COc1nc2ncc(C(O)C(O)CO)nc2c(=O)n1C	inhibition	resazurin	6.25 µg/mL	H37Rv	-	-	-9%
CO/C(C)=C1/NC(=O)[C@H]([C@@H](C)O)NC(=O)c2csc(n2)-c2cc(O)c(-c3nc(C(=O)NCCCN4CCOCC4)cs3)nc2-c2csc(n2)[C@@H]2COC(=O)c3c4c5c(cccc5n3O)COC(=O)[C@@H](O[C@H]3C[C@](C)(O)[C@H](N(C)C)[C@H](C)O3)[C@@H](OC4)[C@H](NC(=O)c3csc1n3)c1nc(cs1)C(=O)N2	MIC	broth dilution	-	Clinical isolate 12850	-	-	≤2.5 µM